A mixed list of measured activities; the numbers were collected in NIAID ChemDB.

Common to all: whole-cell or culture tests; organism: HIV-1; cell line: PBMC; read-out: EC90

ECn is the concentration giving n% inhibition of infection, replication or growth.

structure	strain or isolate	mutations	method	value
CN1c2c(-c3ccccc3)nn(CC(=O)N/N=C/c3cccc([N+](=O)[O-])c3)c2-c2ccccc2S1(=O)=O	LAV-1		RT activity	>100 µM
Nc1ncnc2c1ncn2[C@@H]1OC[C@H](CCP(=O)(O)O)C12CC2	LAV-1		RT activity	80 µM
CN1c2c(-c3ccccc3)nn(CC(=O)N/N=C/c3cccc(Br)c3)c2-c2ccccc2S1(=O)=O	LAV-1		RT activity	>100 µM
CC(C)(C)OC(=O)N1[C@H](CO)CC(F)(F)[C@H]1n1cnc2ncnc(Cl)c21	LAI		RT activity	>100 µM
Nc1nc2c(ncn2[C@@H]2S[C@H](CO)[C@H]2CO)c(=O)[nH]1	xxBRU		RT activity	>100 µM
Nc1nc(=O)n([C@H]2C=C[C@@H](CO)O2)cc1F	XM-Q151M	RT-A62V V75I F77C F116Y Q151M	p24	26 µM
C/C(=N\NC(=O)CN1c2c(-c3ccccc3)n[nH]c2-c2ccccc2S1(=O)=O)c1ccc2c(c1)OCCO2			RT activity	>100 µM
Cc1cn([C@@H]2C=C(F)[C@H](CO)C2)c(=O)[nH]c1=O	LAI		RT activity	100 µM
CCOC(=O)[C@H](C)NP(=O)(OC[C@@H]1OC[C@H](n2cnc3c(NC4CC4)nc(N)nc32)O1)Oc1ccccc1	LAI		RT activity	0.08 µM
C[C@@]1(F)[C@H](O)[C@@H](CO)O[C@H]1n1cc(I)c2c(N)nc(N)nc21				>100 µM
CC(C)(C)OC(=O)N1[C@H](CO)CC(F)(F)[C@H]1n1cnc2c(N)ncnc21	LAI			>100 µM
C#Cc1cn([C@H]2O[C@H](CO)[C@@H](O)[C@@]2(C)F)c2nc(N)nc(N)c12				59.1 µM
COc1cc(OC)cc(C(=O)OCc2nc3ccccc3nc2C)c1	89BZ167		RT activity	>100 µM
Nc1ncnc2c1ncn2[C@@H]1OC[C@H](/C=C/P(=O)(O)O)C12CC2	LAV-1		RT activity	95 µM
C[C@@]1(F)[C@H](O)[C@@H](CO)O[C@@H]1n1cc(I)c2c(N)nc(N)nc21				>100 µM
CN1c2c(-c3ccccc3)nn(CC(=O)N/N=C/c3ccccc3Br)c2-c2ccccc2S1(=O)=O	LAV-1		RT activity	>100 µM
Nc1nc(NC2CC2)c2ncn([C@H]3C=C[C@@H](CO)C3)c2n1	XM-AZT-resistant	RT-M41L D67N K70R T215Y K219Q	p24	4.5 µM
C/C(=N\NC(=O)CN1c2c(-c3ccccc3)n[nH]c2-c2ccccc2S1(=O)=O)c1ccc(C)o1			RT activity	>100 µM
CCc1cn([C@@H]2O[C@H](CO)[C@@H](O)[C@@]2(C)F)c2ncnc(N)c12				>100 µM
C#C[C@]1(CO)O[C@@H](n2cnc3c(N)nc(F)nc32)C[C@@H]1O	NL4-3		p24 / ELISA	>0.066 µM
C/C(=N\NC(=O)CN1c2c(-c3ccccc3)n[nH]c2-c2ccccc2S1(=O)=O)c1cc2ccccc2o1			RT activity	>100 µM
Cc1cn([C@H]2CO[C@@H](COP(=O)(N[C@@H](C)C(=O)OCc3ccccc3)Oc3ccccc3)O2)c(=O)[nH]c1=O	LAI	RT-M184V	RT activity	4.6 µM
Nc1ncnc2c1ncn2[C@H]1S[C@@H](CO)[C@@H]1CO	xxBRU		RT activity	>100 µM
CC(C)(C)OC(=O)N1[C@H](CO)CC(F)(F)[C@@H]1n1cnc2c(Cl)ncnc21	LAI			>100 µM
CC(=O)Nc1ccc(/C=N/NC(=O)Cn2nc(-c3ccccc3)c3c2-c2ccccc2S(=O)(=O)N3C)cc1	LAV-1		RT activity	>100 µM
Cc1nc2ccccc2nc1COC(=O)c1ccc(O)cc1O	89BZ167		RT activity	>100 µM
CC(C)(C)OC(=O)N1[C@H](CO)CC(F)(F)[C@@H]1n1cnc2c(N)ncnc21	LAI			>100 µM
C/C(=N\NC(=O)CN1c2c(-c3ccccc3)n[nH]c2-c2ccccc2S1(=O)=O)c1cc(C)cs1			RT activity	>100 µM
COc1cc(OC)c(C(=O)OCc2nc3ccccc3nc2C)cc1OC	89BZ167		RT activity	>100 µM
CN1c2c(-c3ccccc3)nn(CC(=O)N/N=C/c3ccc(Cl)cc3Cl)c2-c2ccccc2S1(=O)=O	LAV-1		RT activity	>100 µM
CCOC(=O)[C@H](C)NP(=O)(OC[C@H]1O[C@@H](n2cc(I)c3c(N)ncnc32)[C@](C)(F)[C@@H]1O)Oc1ccccc1				>100 µM
C=CCc1ccccc1OP(=O)(N[C@@H](C)C(=O)OC)OC[C@@H]1OC[C@H](n2cc(C)c(=O)[nH]c2=O)O1	LAI	RT-M184V	RT activity	12.9 µM
CC(C)(C)C(=O)OCOP(=O)(CC[C@H]1O[C@@H](n2cnc3c(=O)[nH]c(N)nc32)[C@](C)(F)[C@@H]1O)OCOC(=O)C(C)(C)C	LAI		PCR	>100 µM
Nc1nc(NC2CC2)c2ncn([C@H]3CO[C@@H](CO)O3)c2n1	LAI		RT activity	9.9 µM
CCOC(=O)[C@H](C)NP(=O)(OC[C@H]1O[C@@H](n2cc(I)c3c(N)nc(N)nc32)[C@](C)(F)[C@@H]1O)Oc1ccccc1				>100 µM
Cc1cn([C@H]2CO[C@@H](COP(=O)(N[C@@H](C)C(=O)OCc3ccccc3)Oc3ccccc3Cl)O2)c(=O)[nH]c1=O	LAI	RT-M184V	RT activity	4.7 µM
O=c1[nH]cnc2c1ncn2[C@@H]1S[C@H](CO)[C@H]1CO	xxBRU		RT activity	>100 µM
Cc1ccc(C(=O)OCc2nc3ccccc3nc2C)cc1O	BaL		RT activity	>100 µM
C/C(=N\NC(=O)CN1c2c(-c3ccccc3)n[nH]c2-c2ccccc2S1(=O)=O)c1ccc(Cl)s1			RT activity	>100 µM
COc1ccc(/C=N/NC(=O)Cn2nc(-c3ccccc3)c3c2-c2ccccc2S(=O)(=O)N3C)c(OC)c1	LAV-1		RT activity	>100 µM
COc1ccc(C(=O)OCc2nc3ccccc3nc2C)c(OC)c1OC	BaL		RT activity	>100 µM
CNc1ncnc2c1c(F)cn2[C@H]1O[C@H](CO)[C@@H](O)[C@@]1(C)F				>100 µM
C/C(=N\NC(=O)CN1c2c(-c3ccccc3)n[nH]c2-c2ccccc2S1(=O)=O)c1ccc[nH]1			RT activity	>100 µM
COc1ccc(/C=N/NC(=O)Cn2nc(-c3ccccc3)c3c2-c2ccccc2S(=O)(=O)N3C)cc1	LAV-1		RT activity	53.9 µM
CCc1cn([C@H]2O[C@H](CO)[C@@H](O)[C@@]2(C)F)c2ncnc(N)c12				>100 µM
Cc1cn([C@H]2C=C(F)[C@@H](CO)C2)c(=O)[nH]c1=O	LAI		RT activity	>100 µM
CC(C)(C)OC(=O)N1[C@H](CO)CC(F)(F)[C@H]1n1cnc2c(Cl)ncnc21	LAI			>100 µM
COc1cc(-c2ccc(Nc3ccccc3C(=O)O)c(OC)c2)ccc1Nc1ccccc1C(=O)O	89BZ167		RT activity	2.25 µM
CC(C)(C)C(=O)OCOP(=O)(CC[C@H]1O[C@@H](n2ccc(=O)[nH]c2=O)[C@](C)(F)[C@@H]1O)OCOC(=O)C(C)(C)C	LAI		PCR	>100 µM
Cc1cn([C@H]2S[C@@H](CO)[C@@H]2CO)c(=O)[nH]c1=O	xxBRU		RT activity	>100 µM
CC(C)(C)OC(=O)N1[C@H](CO)CC(F)(F)[C@@H]1n1cnc2ncnc(N)c21	LAI		RT activity	>100 µM
CCOC(=O)[C@H](C)NP(=O)(OC[C@@H]1OC[C@H](n2cnc3c(OC)nc(N)nc32)O1)Oc1ccccc1	LAI		RT activity	0.02 µM

A second listing of 5 rows from above:

{"structure": "CC(C)(C)OC(=O)N1[C@H](CO)CC(F)(F)[C@@H]1n1cnc2ncnc(N)c21", "strain or isolate": "LAI", "method": "RT activity", "value": ">100 µM"}
{"structure": "CC(=O)Nc1ccc(/C=N/NC(=O)Cn2nc(-c3ccccc3)c3c2-c2ccccc2S(=O)(=O)N3C)cc1", "strain or isolate": "LAV-1", "method": "RT activity", "value": ">100 µM"}
{"structure": "C/C(=N\\NC(=O)CN1c2c(-c3ccccc3)n[nH]c2-c2ccccc2S1(=O)=O)c1ccc2c(c1)OCCO2", "method": "RT activity", "value": ">100 µM"}
{"structure": "CC(C)(C)OC(=O)N1[C@H](CO)CC(F)(F)[C@@H]1n1cnc2c(N)ncnc21", "strain or isolate": "LAI", "value": ">100 µM"}
{"structure": "Nc1nc(NC2CC2)c2ncn([C@H]3C=C[C@@H](CO)C3)c2n1", "strain or isolate": "XM-AZT-resistant", "mutations": "RT-M41L D67N K70R T215Y K219Q", "method": "p24", "value": "4.5 µM"}

Neighbouring rows are from separate reports. Blank or dashed fields: not listed here.